Test results taken from ChEMBL document CHEMBL3352217, “Expanding the results of a high throughput screen against an isochorismate-pyruvate lyase to enzymes of a similar scaffold or mechanism” (Bioorg Med Chem, 2014).

Sequences of proteins named here, by UniProt entry; tags and fusion partners are left off. Residues count along the entry.
UniProt Q9X9I8, 1-434: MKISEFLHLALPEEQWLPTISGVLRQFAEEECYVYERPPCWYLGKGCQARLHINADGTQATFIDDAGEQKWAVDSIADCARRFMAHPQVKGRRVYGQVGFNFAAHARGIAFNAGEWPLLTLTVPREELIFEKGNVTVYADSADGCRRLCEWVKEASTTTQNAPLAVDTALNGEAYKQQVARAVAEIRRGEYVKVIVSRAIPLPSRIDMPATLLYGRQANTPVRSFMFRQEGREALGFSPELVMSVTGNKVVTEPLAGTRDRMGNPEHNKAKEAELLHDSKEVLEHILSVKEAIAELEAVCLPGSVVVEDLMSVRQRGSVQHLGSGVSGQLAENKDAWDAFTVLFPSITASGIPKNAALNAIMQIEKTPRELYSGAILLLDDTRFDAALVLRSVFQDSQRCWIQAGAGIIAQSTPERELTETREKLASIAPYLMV

Columns and labels:
[1] = Competitive inhibition of Pseudomonas aeruginosa PAO1 PchB expressed in Escherichia coli BL21(DE3) using isochorismate as substrate
[2] = Inhibition of Pseudomonas aeruginosa PAO1 PchB expressed in Escherichia coli BL21(DE3) using isochorismate as substrate assessed as salicylate production by fluorescence spectrometry
[3] = Inhibition of Pseudomonas aeruginosa PAO1 PchB expressed in Escherichia coli BL21(DE3) using isochorismate as substrate assessed as pyruvate production after 10 mins by microplate reader analysis
[4] = biological target: Salicylate synthetase, Irp9 (Yersinia enterocolitica, UniProt Q9X9I8); assay: Inhibition of Yersinia enterocolitica Irp9 using chorismate as substrate assessed as pyruvate production after 10 mins by microplate reader analysis

O=[N+]([O-])c1cc(S(=O)(=O)c2cc([N+](=O)[O-])c(O)c([N+](=O)[O-])c2)cc([N+](=O)[O-])c1O
Ki [1]: 80 nM
IC50 [2]: 100 nM
IC50 [3]: 70 nM
IC50 [4]: Not Active
